Anti-infective test results gathered from many reports (values: NIAID ChemDB through PubChem).

Shared fields: tests in culture; organism: Mycobacterium tuberculosis

MIC bound comes from a single tested concentration. Blank or dashed fields: not listed here. Percent inhibition refers to the dose given; in toxicity tests it is the harm to the cells. MIC50, MIC90 and the like: level of inhibition, or share of isolates inhibited. Rows are shuffled and stem from different studies. ECn is the concentration giving n% inhibition of infection, replication or growth.

structure	method	read-out	setting	strain	tested at	result
CN(C(=O)C1CC1)C1C2CN3CCC(O2)C13	BACTEC	MIC bound	-	H37Rv	-	>12.5 µg/mL
O=c1nc2c(ncn2Cc2ccccc2)c(-c2ccccc2)n1Cc1ccccc1	-	MIC	-	H37Rv	-	>12.5 µg/mL
Cc1ccc2nc(/C=C(\O)c3ccccc3Cl)c(=O)oc2c1	-	MIC	-	H37Rv	-	>100 µg/mL
N#C[C@]1(O[C@@H]2O[C@H](CO)[C@@H](O)[C@H](O)[C@H]2O)C=CCC1	BACTEC	inhibition	-	H37Rv	12.5 µg/mL	-3%
CCC(=O)OC1(C)c2ccccc2-c2c1c(-n1ccnc1)nc1ccc(Br)cc21	resazurin	MIC90	-	H37Rv	-	>6.25 µg/mL
Cc1ccccc1-c1cs/c(=N/NC(=O)CSc2nnc(-c3ccccn3)s2)n1-c1ccccc1	-	MIC	-	Clinical isolate 180	-	>80 µg/mL
CC1COc2c(N3CCN(C)CC3)c(F)cc3c(=O)c(C(=O)O)cn1c23	-	MIC90	-	-	-	6.25 µg/mL
S=C(Nc1ccccc1)Nc1ccc(-c2nnc(NCc3ccccc3)s2)cc1	-	MIC	-	H37Rv	-	>6.25 µg/mL
COc1cccc2c1cc1c3c(cc4c(c32)OCO4)C(=O)N1	resazurin	MIC	-	MMDO	-	25 µg/mL
O=C(NN1C(=O)C(Cl)C1c1ccc(Cl)cc1Cl)c1ccccc1-c1nc2ccccc2[nH]1	-	inhibition	-	H37Rv	0.031 µg/mL	97%
COc1cc(/C=C(\C#N)n2nc3ccccc3n2)cc(OC)c1OC	-	EC50	-	H37Rv	-	>12.5 µg/mL
CC(C)=NNC(=O)Nc1ccc(C)c(Cl)c1	BACTEC	MIC	-	H37Rv	-	12.5 µg/mL
CCCCCCCCCC#CCCC#CC(=O)O	-	MIC	-	H37Rv	-	>300 µM
O=C(CSc1nnc(-c2ccccn2)s1)N/N=c1/scc(-c2ccccc2)n1-c1ccccc1Cl	-	MIC	-	Clinical isolate 190	-	>80 µg/mL
C/C(=N\NC(N)=S)c1ccccc1	-	MIC	-	H37Rv	-	0.4 µg/mL
O=C(N/N=C/c1ccc(Oc2ccccc2Cl)cc1)c1nc2ccccc2[nH]1	resazurin	MIC	-	H37Rv	-	6.25 µg/mL
O=[N+]([O-])c1cccc2ccc(C3CCCCC3)nc12	-	MIC	-	Isoniazid-resistant	-	25 µg/mL
N=C(N=c1cc(C(=O)NC(=N)NC(=N)Nc2ccc(Cl)cc2)n(C(=N)NC(=N)Nc2ccc(Cl)cc2)c(C(=O)NC(=N)NC(=N)Nc2ccc(Cl)cc2)c1)NC(=N)Nc1ccc(Cl)cc1	resazurin	inhibition	-	H37Rv	6.25 µg/mL	34%
CCCC/C=C/CNNC(=O)c1ccncc1	-	MIC	-	BCG	-	0.03 µg/mL
COc1ccc2nccc(Nc3ccc(S(=O)(=O)Nc4ccnn4-c4ccccc4)cc3)c2c1	-	MIC	-	Strain 2 (MDR)	-	>2 µg/mL
O=C(Nc1cccc(OC(F)F)c1)NC12CCC3CC(CC1C3)C2	-	MIC	-	H37Rv	-	0.8 µg/mL
S=C(Nc1ccccc1)Nc1ccc(-c2nnc(NC3CCCCC3)s2)cc1	-	MIC	-	H37Rv	-	>6.25 µg/mL
CCCCCCCCCCCCCC(=O)O/N=C1\c2ccccc2-c2c1c(-n1ccnc1)nc1ccc(Br)cc21	resazurin	MIC90	-	H37Rv	-	>6.25 µg/mL
COc1ccc(/C=C(\C#N)n2nnc3ccccc32)cc1OC	-	inhibition	-	H37Rv	12.5 µg/mL	0%
O=C(CSc1nnc(-c2ccccn2)s1)N/N=c1/scc(-c2cccc(Br)c2)n1-c1ccccc1	-	MIC	-	Clinical isolate 190	-	>80 µg/mL
O=c1nc2c(ncn2Cc2ccccc2)c(-c2cccs2)n1Cc1ccccc1	-	MIC	-	H37Rv	-	>12.5 µg/mL
CC(C)N=c1cc2n(-c3ccc(Cl)cc3)c3ccccc3nc-2cc1Nc1ccc(Cl)cc1	-	MIC	-	Praha 131	-	0.26 µM
CCCCCCCCCCCCCCC(=O)O/N=C1\c2ccccc2-c2c1c(N1CCN(c3ccccn3)CC1)nc1ccc(Br)cc21	resazurin	MIC90	-	H37Rv	-	>6.25 µg/mL
O=C(N/N=C/c1ccc(Oc2ccc(Cl)cc2Cl)cc1)c1nc2ccc([N+](=O)[O-])cc2[nH]1	resazurin	MIC	-	H37Rv	-	6.25 µg/mL
CCCCCCCCC(=O)O/N=C1\c2ccccc2-c2c1c(N1CCN(c3ccccn3)CC1)nc1ccc(Br)cc21	resazurin	MIC90	-	H37Rv	-	>6.25 µg/mL
Cc1ccc2nccc(Nc3ccc(S(=O)(=O)Nc4ccnn4-c4ccccc4)cc3)c2c1	-	MIC	-	Strain 2 (MDR)	-	4 µg/mL
CC(C)CCOc1ccc(NC(=S)Nc2ccc(OCCC(C)C)cc2)cc1	-	MIC	-	H37Rv	-	2 µg/mL
Cc1ccc2nc(-c3ccccc3)cc(Nc3cccc(O)c3)c2c1	-	MIC	-	Strain 1 (MDR)	-	4 µg/mL
CC(C)(C)CC(C)(O)CN(CC(C)(O)CC(C)(C)C)C(=S)S	BACTEC	MIC	-	H37Rv	-	3.13 µg/mL
Cc1ccc(-c2nc3sc(C)nn3c2COCc2cn(-c3ccccc3F)nn2)cc1	agar	MIC	-	H37Rv	-	50 µg/mL
NNC(=O)c1ccncc1	fluorescence / absorbance	EC50	-	H37Rv	-	0.63 µM
O=C(NNC1C=CCCC1)c1cccs1	-	MIC	-	BCG	-	3 µg/mL
O=C(Nc1cccc2c(C3CCCCC3)cc(C3CCCCC3)nc12)C(F)(F)F	-	MIC	-	Rifampicin-resistant	-	50 µg/mL
CC(=O)OCC1OC(OC2C3COC(O3)C3OC(C)(C)OC23)C(OC(C)=O)C(OC(C)=O)C1OC(C)=O	BACTEC	inhibition	-	H37Rv	12.5 µg/mL	11%
NO	-	MIC	-	H37Rv	-	17.5 µg/mL
O=[n+]1c2ccccc2n([O-])c2ccccc21.[Cl][Cu][Cl]	-	MIC	-	ETA-R	-	3.1 µg/mL
CCCCCCCCCCCCCCCCNC(=O)C1=CCN(C)[C@@H]([C@H](O[C@@H]2O[C@H](CN)[C@@H](O)[C@H]2O)[C@H]2O[C@@H](n3ccc(=O)[nH]c3=O)[C@H](O)[C@@H]2O)C(=O)N1C	-	MIC	-	H37Rv	-	1.56 µg/mL
NC(=S)N/N=C/c1ccc2oc3ccccc3c2c1	-	MIC	-	ETA-R	-	0.1 µg/mL
CCCCC/C=C/NNC(=O)c1cccs1	-	MIC	-	BCG	-	6 µg/mL
COc1ccc(-c2nc3sc(C)nn3c2COCc2cn(C#N)nn2)cc1	agar	MIC	-	H37Rv	-	50 µg/mL
O=C(N/N=C/c1ccc(Oc2ccc(Cl)cc2Cl)cc1)c1nc2ccccc2[nH]1	resazurin	MIC	-	H37Rv	-	12.5 µg/mL
O=C1CC(=O)NC(=NN2C(=O)CSC2C(=O)c2ccco2)N1	BACTEC	inhibition	-	H37Rv	12.5 µg/mL	7%
Cc1ccc(-c2cs/c(=N/NC(=O)CSc3nnc(-c4ccccn4)s3)n2-c2ccccc2)cc1	-	MIC	-	Clinical isolate 190	-	40 µg/mL
COc1ccc(Oc2ccc(/C=N/NC(=O)c3nc4ccc(Cl)cc4[nH]3)cc2)cc1	resazurin	MIC	-	H37Rv	-	12.5 µg/mL
Nc1cccc2cccnc12	-	inhibition	-	H37Rv	6.25 µg/mL	0%
C=C[C@@]1(C)CC(=O)[C@]2(O)[C@@]3(C)[C@@H](O)CCC(C)(C)[C@@H]3[C@H](O)[C@H](OC(C)=O)[C@@]2(C)O1	BACTEC	inhibition	-	H37Rv	12.5 µg/mL	-2%
CC(C)(C)Oc1cccc(NC(=O)NC23CCC4CC(CC2C4)C3)c1	-	MIC	-	H37Rv	-	0.2 µg/mL
O=C(N/N=C/c1ccccc1)c1ccccc1-c1nc2ccccc2[nH]1	-	inhibition	-	H37Rv	0.031 µg/mL	32%
Cc1cccc(-c2cs/c(=N/NC(=O)CSc3nnc(-c4ccccn4)s3)n2-c2ccccc2)c1	-	MIC	-	H37Rv	-	40 µg/mL
N#C/C(=C\c1ccc[nH]1)n1nnc2ccccc21	-	EC50	-	H37Rv	-	>12.5 µg/mL
O=C1C2=C(Nc3ccccc3N2)OC1c1ccncc1	BACTEC	MIC bound	-	H37Rv	-	>12.5 µg/mL
Cc1ccccc1Nc1nnc(-c2ccc(NC(=S)Nc3ccccc3)cc2)s1	-	inhibition	-	H37Rv	6.25 µg/mL	3%
CCCCC(=O)O/N=C1\c2ccccc2-c2c1c(N1CCN(c3ccccn3)CC1)nc1ccc(Br)cc21	resazurin	MIC90	-	H37Rv	-	>6.25 µg/mL
O=C(N/N=C/c1ccc(Cl)cc1Cl)c1ccccc1-c1nc2ccccc2[nH]1	-	EC50	-	H37Rv	-	<0.031 µg/mL
CCNc1nnc(-c2ccc(NC(=S)Nc3ccccc3)cc2)s1	-	EC50	-	H37Rv	-	>6.25 µg/mL
O=C(N/N=C/c1ccc(O)cc1)c1ccccc1-c1nc2ccccc2[nH]1	-	EC50	-	H37Rv	-	<0.031 µg/mL
CCCCCCOCC(O)CNCCN	-	inhibition	-	H37Rv	6.25 µg/mL	6%
O=C(NN1C(=O)C(Cl)C1c1ccc(Cl)cc1)c1ccccc1-c1nc2ccccc2[nH]1	-	EC50	-	H37Rv	-	<0.031 µg/mL
O=C(CSc1nnc(-c2ccccn2)s1)N/N=c1/scc(-c2ccccc2)n1-c1ccc([N+](=O)[O-])cc1	-	MIC	-	Clinical isolate 190	-	>80 µg/mL
Cc1ccc(Cn2nnc(-c3cc([N+](=O)[O-])cc([N+](=O)[O-])c3)n2)cc1	-	MIC	14 d	234/2005	-	0.125 µM
O=C(N/N=C/C=C/c1ccccc1)c1ccccc1-c1nc2ccccc2[nH]1	-	inhibition	-	H37Rv	0.031 µg/mL	50%
O=C(Nc1cccc(Oc2ccccc2)c1)NC12CC3CC(CC(C3)C1)C2	-	MIC	-	H37Rv	-	3.4 µg/mL
CCOc1c(N=Nc2ccccc2Cl)c(C)nn1C(=S)S	BACTEC	MIC	-	H37Rv	-	≥12.5 µg/mL
O=C(CSc1nnc(-c2ccccn2)s1)N/N=c1/scc(-c2ccccc2)n1-c1ccc(Br)cc1	-	MIC	-	Clinical isolate 190	-	40 µg/mL
C[C@@H](O)[C@H](NC(=O)OCc1ccccc1)C(=O)N[C@@H](CO)C(=O)NN	BACTEC	MIC bound	-	H37Rv	-	>12.8 µg/mL
N#C/C(=C/c1ccc2ccccc2c1)n1nnc2ccccc21	-	inhibition	-	H37Rv	12.5 µg/mL	0%
[N-]=[N+]=CC(=O)CCC(=O)N(c1ccccc1)c1ccccc1	BACTEC	inhibition	-	H37Rv	12.5 µg/mL	13%
O=C(Nc1cccc2ccc(C3CCCCC3)nc12)C(F)(F)F	-	inhibition	-	H37Rv	6.25 µg/mL	9%
O=C(NNCC(NNC(=O)c1ccncc1)C(O)C(O)C(O)CO)c1ccncc1	-	MIC	-	BCG	-	0.04 µg/mL
CC[N+](CC)=c1ccc2nc3c(cc(Nc4ccccc4)c4ccccc43)oc-2c1.[Cl-].[Cl][Zn][Cl]	BACTEC	MIC	-	H37Rv	-	≥128 µg/mL
CO[C@H]1/C=C/O[C@@]2(C)Oc3c(C)c(O)c4c(O)c(c5c(c4c3C2=O)NC2(CCN(CC(C)C)CC2)N=5)=NC(=O)/C(C)=C\C=C\[C@H](C)[C@H](O)[C@@H](C)[C@@H](O)[C@@H](C)[C@H](OC(C)=O)[C@@H]1C	-	MIC	-	Strain 11 (RIF-resistant)	-	1.25 µg/mL
O=C(N/N=C/c1ccccc1O)c1ccccc1-c1nc2ccccc2[nH]1	-	EC50	-	H37Rv	-	<0.031 µg/mL
CC(C)(O)CC[C@@H](O)[C@](C)(O)[C@H]1CC[C@@]2(O)C3=CC(=O)[C@@H]4C[C@@H](O)[C@@H](O)C[C@]4(C)[C@H]3CC[C@]12C	BACTEC	inhibition	-	H37Rv	12.5 µg/mL	14%
COc1ccc2nccc(Nc3ccc(S(=O)(=O)c4ccc(NC(C)=O)cc4)cc3)c2c1	-	MIC	-	Strain 1 (MDR)	-	0.4 µg/mL
Cc1cc(=O)c2c([nH]1)c1c(c3[nH]c(C)cc(=O)c32)Oc2ccccc2O1	-	MIC	-	CS-R	-	1.6 µg/mL
CCCCCCCCOc1c(C(C)=O)cc(N)c2nccc(CC)c12	-	MIC	-	H37Rv	-	>6.25 µg/mL
Cc1ccc(/C=C(\C(N)=O)n2nnc3ccccc32)cc1	-	inhibition	-	H37Rv	12.5 µg/mL	0%
O=C(O)CN1CCCN(CC(=O)O)Cc2cccc(n2)CN(CC(=O)O)CCC1	radiometric	inhibition	-	H37Rv	7.5 µg/mL	99%
O=c1[nH]c(-c2ccccc2)c(-c2ccccc2)nc1Cl	BACTEC	inhibition	-	H37Rv	12.5 µg/mL	4%
O=C(N/N=C/c1ccc(Oc2cccc3ccccc23)cc1)c1nc2ccccc2[nH]1	resazurin	MIC	-	H37Rv	-	12.5 µg/mL
NNC(=O)c1nc[nH]c1C(=O)NN	BACTEC	MIC bound	-	H37Rv	-	>12.5 µg/mL
COc1cc2c3c(c1OC)-c1cc4c(cc1CC3N(C=O)CC2)OCO4	resazurin	MIC	-	H37RvRr	-	>50 µg/mL

The last 7 rows once more:

structure,method,read-out,setting,strain,tested at,result
CCCCCCCCOc1c(C(C)=O)cc(N)c2nccc(CC)c12,-,MIC,-,H37Rv,-,>6.25 µg/mL
Cc1ccc(/C=C(\C(N)=O)n2nnc3ccccc32)cc1,-,inhibition,-,H37Rv,12.5 µg/mL,0%
O=C(O)CN1CCCN(CC(=O)O)Cc2cccc(n2)CN(CC(=O)O)CCC1,radiometric,inhibition,-,H37Rv,7.5 µg/mL,99%
O=c1[nH]c(-c2ccccc2)c(-c2ccccc2)nc1Cl,BACTEC,inhibition,-,H37Rv,12.5 µg/mL,4%
O=C(N/N=C/c1ccc(Oc2cccc3ccccc23)cc1)c1nc2ccccc2[nH]1,resazurin,MIC,-,H37Rv,-,12.5 µg/mL
NNC(=O)c1nc[nH]c1C(=O)NN,BACTEC,MIC bound,-,H37Rv,-,>12.5 µg/mL
COc1cc2c3c(c1OC)-c1cc4c(cc1CC3N(C=O)CC2)OCO4,resazurin,MIC,-,H37RvRr,-,>50 µg/mL